Source: article PMC6630443 (Viruses, 2019)

What was measured:
[1] = system: USUV; conditions: Vero cells treated with 800 µM drug; cited from earlier work
[2] = system: USUV; experiment: Antiviral activity (virus titer, TCID50) in persistently-infected V p39 cells; type: cell-based, Usutu virus
[3] = system: USUV; experiment: Antiviral activity (virus titer, TCID50) in persistently-infected S p39 cells; type: cell-based, Usutu virus
[4] = system: USUV; experiment: Antiviral activity (virus titer, TCID50) in lytically-infected Vero cells; type: cell-based, Usutu virus

## Oc1ncc(F)c(O)n1 [5-Fluorouracil, 2,4-dihydroxy-5-fluoropyrimidine]
[1]
  USUV titers over five consecutive lytic passages: reduced USUV titers

## NC(=O)c1nc(F)cnc1O [Favipiravir, 6-fluoro-3-hydroxy-2-pyrazinecarboxamide]
[2]
  Selectivity Index: > 10.2
[1]
  USUV titers over five consecutive lytic passages: reduced USUV titers
[3]
  Selectivity Index: > 8.3
[4]
  Selectivity Index: > 6.3

## NC(=O)c1ncn([C@@H]2O[C@H](CO)[C@@H](O)[C@H]2O)n1 [Ribavirin, 1-(β-D-Ribofuranosyl)-1H-1,2,4-triazole-3-carboxamide]
[2]
  Selectivity Index: > 28.2
[1]
  USUV titers over five consecutive lytic passages: reduced USUV titers
[3]
  Selectivity Index: > 25
